Earlier results as cited in paper PMC3621123 (Journal of medicinal chemistry, 2013).

Amino acid sequences for entries named in this document (tags omitted). A change or cut given only in a name is not applied to a line headed by its entry.
UniProt P71716: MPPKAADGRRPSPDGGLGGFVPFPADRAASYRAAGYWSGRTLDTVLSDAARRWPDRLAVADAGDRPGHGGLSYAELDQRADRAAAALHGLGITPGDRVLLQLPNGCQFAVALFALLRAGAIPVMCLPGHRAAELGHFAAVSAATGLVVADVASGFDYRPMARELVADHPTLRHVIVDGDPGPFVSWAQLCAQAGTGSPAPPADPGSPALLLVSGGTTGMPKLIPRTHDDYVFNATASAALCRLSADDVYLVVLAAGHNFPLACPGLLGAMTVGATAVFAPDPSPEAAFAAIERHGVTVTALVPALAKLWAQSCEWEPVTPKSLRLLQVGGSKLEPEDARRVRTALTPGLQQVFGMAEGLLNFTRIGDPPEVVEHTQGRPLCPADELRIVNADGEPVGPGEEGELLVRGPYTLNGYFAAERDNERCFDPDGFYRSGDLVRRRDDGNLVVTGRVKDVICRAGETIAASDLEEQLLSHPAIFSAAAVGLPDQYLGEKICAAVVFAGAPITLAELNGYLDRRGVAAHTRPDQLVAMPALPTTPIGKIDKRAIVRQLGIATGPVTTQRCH

Biological target: MbtA (Mycobacterium tuberculosis, UniProt P71716)
Conditions: read-out: KD1, equilibrium dissociation constant of probe 14 for MbtA; cited from earlier work

Substance: 22-O-{2-[2-(2-{[(fluorescein-5-yl)carbonyl]amino}ethoxy)ethoxy]ethoxy}-52-O-[N-(salicyl)sulfamoyl]adenosine [Compound 14]
- Kd: 9.26 nM
